Maximum fold increase data for 28 compounds are collected here from PubChem BioAssay AID1956 (SRMLSC, 2009).

The list shows a part of the results, in another mix than the full data. The source made the active and inactive calls. Rule as the data show it: active = maximum fold increase above about 1.5; inconclusive = no clear call, values can overlap the other calls; inactive = below that; tested in PC3 cells.

The nature of this assay: enhancers of HSV replication in host cells, fold increase, host cell viability (AID 1956). The note with it: HSV replication augmentation in cells; at 12.5 µM, stronger effect = higher value.
For `O=C(OC1CN2CCC1CC2)C1c2ccccc2C=Cc2ccccc21` (stereo not drawn), the maximum fold increase entry was “inactive”.
For `COc1ccc(C(=O)NCC2(N3CCOCC3)CCCCC2)cc1OC`, the maximum fold increase result is “inactive”.
In the case of `c1ccc(CN2CCC(Nc3ccccc3)CC2)cc1`, the maximum fold increase entry was “inactive”.
As for `N#Cc1ccc(C(=O)NCC2(N3CCCCC3)CCCCC2)cc1`, the entry is “inactive”; as for `CCN1CCC(Nc2cccc(F)c2)CC1`, “inactive”.
Under `CN(C)c1ccc(C(=O)NCC2(N3CCCCC3)CCCCC2)cc1` stands “inactive”.
Take `Fc1ccccc1NC1CCN(Cc2ccccc2)CC1`: the maximum fold increase entry is “inactive”.
As for `COc1cc(OC)cc(C(=O)NCC2(N3CCOCC3)CCCCC2)c1`, the entry is “inactive”; as for `CCC(CO)(C(=O)OC1CN2CCC1CC2)c1ccccc1` (stereo not drawn), “inactive”.
As for `CCCOc1ccc(C)cc1CN(CCCl)CCCl`, the entry is “inactive”; as for `CCOc1ncccc1C(=O)NCC1(N2CCOCC2)CCCCC1`, inactive: 1.1; as for `CC(C)(C)OC(=O)N1CCC(Nc2ccccc2)CC1`, “inactive”.
Under `O=C(NCC1(N2CCOCC2)CCCCC1)c1cc2ccccc2o1` stands “inactive”; under `N#CC1(Nc2ccccc2)CCN(Cc2ccccc2)CC1`, “inactive”.
For the compound `O=C(OC1CN2CCC1CC2)C1c2ccccc2Oc2ccccc21` (stereo not drawn), the maximum fold increase entry is “inactive”.
Under `CCOC(=O)N1CCC(Nc2ccc(OC)cc2)CC1` stands “inactive”.
Consider `COc1ccc(C(=O)NCC2(N3CCCCC3)CCCCC2)c(OC)c1OC`, for which the maximum fold increase entry was “inactive”.
As for `Cc1ccc(OCC(C)C)c(CN(CCCl)CCCl)c1`, the entry is “inactive”.
For `CCOc1ccc(C)cc1CN(CCCl)CCCl`, the maximum fold increase entry is “inactive”.
As for `COc1ccc(NC2CCN(CCc3ccccc3)CC2)c(OC)c1`, the entry is “inactive”.
As for `O=C(NCC1(N2CCOCC2)CCCCC1)c1cc(=O)[nH]c2ccccc12`, the entry is “inactive”.
As for `COc1ccc(NC2CCN(C(=O)OC(C)(C)C)CC2)cc1`, the entry is “inactive”; as for `CN1CCN(CCOC(=O)C(O)(c2ccccc2)c2ccccc2)CC1`, “inactive”; as for `N#CC1(Nc2ccccc2)CCN(CCc2ccccc2)CC1`, “inactive”.
In the case of `CN1CCC(Nc2cccc(F)c2)CC1`, the maximum fold increase entry was “inactive”.
As for `CC(C)c1ccc(NC2CCN(C(=O)OC(C)(C)C)CC2)cc1`, the entry is “inactive”; as for `CN(C)c1cccc(C(=O)NCC2(N3CCCCC3)CCCCC2)c1`, “inactive”; as for `COc1ccc(CN(CCCl)CCCl)cc1Cl`, “inactive”.
